Pooled drug test results. Numbers come from NIAID ChemDB, via PubChem.

Shared fields: host cell toxicity; read-out: CC50

Blank or dashed fields: not listed here.

compound,cells,method,result
COc1ccc(Br)cc1-c1cc(=O)c2c(O)cccc2o1,CHO,MTS / absorbance,25.5 µM
C/C(=N\NC(=O)CN1c2c(-c3ccccc3)n[nH]c2-c2ccccc2S1(=O)=O)c1cc(C)oc1C,CEM,MTS,9.9 µM
CN(C)c1ccc(C=C2C(=O)C=CC2=O)cc1,HeLa S3,XTT,>10 µM
COc1ccc(Cl)cc1C1CC(=O)c2ccccc2O1,CHO,MTS / absorbance,25.5 µM
COc1ccc2nc3cc(Cl)ccc3c(NCCCCCCN3CCNCC3)c2c1,KB cells,MTS,0.425 µM
Cc1ccc2nc(Nc3cc(O)cc([N+](=O)[O-])c3)sc2c1,Ava5,MTS,52 µM
CCOC(=O)c1c(C)cc(=O)c(O)c(O)c1O,CEM-SS,absorbance,>50 µM
CCOC(OCC)C1=NCCc2cc(OC)c(OC)cc21,HepG2,-,<7.5 µM
COc1ccc2nc3cc(Cl)ccc3c(NCCCCCCNC(=O)[C@@H](N)Cc3cnc[nH]3)c2c1,KB cells,MTS,1.28 µM
COc1cc2c(cc1OC)C(C)=NCC2,BJ,-,<7.5 µM
COc1ccc(Br)cc1-c1cc(=O)c2ccccc2o1,CHO,MTS / absorbance,25.5 µM
Cc1ccc(C)c(C(Br)S(=O)(=O)c2cccc[n+]2[O-])c1,HEL,-,16 µg/mL
Cc1cn([C@H]2O[C@@H](CO)[C@H](O)[C@H]2F)c(=O)[nH]c1=O,H-1,-,1000 µM
CCCCN1C(=O)c2ccccc2NC1c1ccc(Cl)cc1,HepG2 cells,luminescence,>30 µM
c1ccc(CNc2nnc(Nc3ccccc3)nn2)cc1,Mammalian cells,-,>115 µM
O=C(O)c1ccc(N2C(=O)c3cccc([N+](=O)[O-])c3C2=O)cc1O,RAW 264.7,visual reading / absorbance,>100 µg/mL
Cc1ccc(C)c(CSc2c(Cl)ccc[n+]2[O-])c1,HEL,-,42 µg/mL
O=C1C=CC(=O)C1=Cc1ccc(Cl)cc1,HeLa S3,XTT,>10 µM
CC(C)N(Cc1cccc(OCCCCCC(=O)OC(=O)O)c1)C(=O)c1ccc(-c2cccc(O)c2)cc1,HEK 293,-,>20 µM
COc1ccc(C=C2C(=O)C=CC2=O)cc1,HeLa S3,XTT,>10 µM
Nc1ncc2c(ncn2COC(CO)CO)n1,TPA-stimulated BCBL-1,-,8.7 µM
Cc1ccc([N+](=O)[O-])cc1CS(=O)(=O)c1cccc[n+]1[O-],HEL,-,57 µg/mL
CCCCNc1nnc(NCc2ccccc2)nn1,Mammalian cells,-,>115 µM
C/C(=N\NC(=O)CN1c2c(-c3ccccc3)n[nH]c2-c2ccccc2S1(=O)=O)c1sccc1Cl,CEM,MTS,16.8 µM
COC(=O)c1c(C)cc(OC)c(O)c(=O)c1OC,CEM-SS,absorbance,32 µM
COc1ccccc1-c1cc(=O)c2c(O)cccc2o1,CHO,MTS / absorbance,25.5 µM
Cc1ccc2nc(Nc3cc(O)cc(C(=O)O)c3)sc2c1,Ava5,MTS,400 µM
O=c1[nH]c(=S)ccn1[C@@H]1O[C@H](COP(=O)(O)O)[C@@H](O)[C@H]1O,HeLa-CD4/CCR5,XTT,>200 µg/mL
COc1ccc(N(Cc2c(Cl)cccc2Cl)S(=O)(=O)c2cccc(C#N)c2)cc1C(=O)O,NHDF,absorbance,>33 µM
Cc1cn([C@@H]2O[C@H](CO)[C@@H](O)[C@@H]2F)c(=O)[nH]c1=O,H-1,-,50 µM
O=C1c2ccccc2NC(c2ccc(Cl)cc2)N1C1CC1,HepG2 cells,luminescence,>20 µM
CC(C)N(Cc1cccc(OCCCCCC(=O)OC(=O)O)c1)C(=O)c1ccc(-c2cccc(C#N)c2)cc1,BJ,-,>20 µM
CC(C)=CCC/C(C)=C/Cc1c(O)cc(O)c(C/C=C(\C)CCC=C(C)C)c1C(=O)c1c(O)cc(O)cc1O,1A2,XTT,<7.8 µg/mL
CN[C@@H](CC1=c2c(O)c3c(c(O)c2N=C1)=NC=CS3(=O)=O)C(=O)O,HEK 293,-,>40 µM
O=c1[nH]c(=O)n(C2C[C@H](CO)[C@H]2CO)cc1C=CCl,WI-38,-,>400 µM
Cc1ccc(C2Nc3ccccc3C(=O)N2CCCCN2CCOCC2)cc1,HepG2 cells,luminescence,>30 µM
COc1ccc2nc3cc(Cl)ccc3c(NCCN3CCNCC3)c2c1,MRC-5 cells,MTS,0.28 µM
O=C(CN1c2c(-c3ccccc3)n[nH]c2-c2ccccc2S1(=O)=O)N/N=C/c1cccs1,CEM,MTS,13.9 µM
CCCCN1C(=O)c2ccccc2NC1c1ccc(F)cc1,HepG2 cells,luminescence,>20 µM
O=c1[nH]c(=O)n([C@H]2C[C@H](O)[C@@H](CO)O2)cc1/C=C/Br,CD4+ T lymphocytes,-,90 µM
C=C1[C@H](CO)[C@@H](O)C[C@@H]1n1cnc2c(=O)[nH]c(N)nc21,Duck hepatocytes,-,8.1 µM
CCN(CC)CCN1C(=O)c2ccccc2NC1c1cc(OC)c(OC)c(OC)c1,HepG2 cells,luminescence,>20 µM
CC(=O)COc1cc(OC(C)=O)c2c(c1)C(=O)C1C=C(C)C=C(OC(C)=O)C1C2=O,K562 erythroleukemia cells,-,59 µM
CCN(CC)CCN1C(=O)c2ccccc2NC1c1ccc2c(c1)OCO2,HepG2 cells,luminescence,>30 µM
O=C1C=CC(=O)C1=Cc1ccccc1,HeLa S3,XTT,>10 µM
CC(C)(C)OC(=O)NCC(OC(=O)C(O)CO)c1ccc2c(c1)OCO2,HEK 293,-,<7.5 µM
Cc1ccc(C)c(CS(=O)(=O)c2ccc(Cl)c[n+]2[O-])c1,HEL,-,4.9 µg/mL
O=C1C=CC(=O)C1=Cc1ccc(F)cc1,HeLa S3,XTT,>10 µM
Cc1ccc2nc(Nc3cc(Cl)cc(Br)c3)sc2c1,Ava5,MTS,168 µM
C/C(=C\CC[C@@H](C)[C@H]1CC[C@@]2(C)C1=CC[C@H]1[C@@]3(C)CC[C@H](O)C(C)(C)[C@@H]3CC[C@@]12C)C(=O)O,1A2,XTT,>125 µg/mL
CC1=CC2C(=O)c3cc(OC/C(=N/NC(N)=O)c4ccccc4)cc(O)c3C(=O)C2C(O)=C1,K562 erythroleukemia cells,-,100 µM
Cn1c2nc3ccccc3c-2cc2ccccc21,L6,resazurin,3.194 µM
Clc1ccc(CSc2ccccn2)cc1,HEL,-,3.5 µg/mL
COc1ccc(/C=C/C=C2C(=O)C=CC2=O)cc1,HeLa S3,XTT,>10 µM
NC1=NC2C(C=CN2CC(CO)CCO)C(=O)N1,CD4+ T lymphocytes,-,230 µM
COc1ccc(-c2cc(C(=O)O)c3ccccc3n2)cc1OC,RAJI,-,>20 µM
C/C(=N\NC(=O)CN1c2c(-c3ccccc3)n[nH]c2-c2ccccc2S1(=O)=O)c1ccc2ccccc2c1,CEM,MTS,24.2 µM
Cc1cc(C)cc(Nc2nc3ccc(C)cc3s2)c1,Ava5,MTS,60 µM
N#Cc1cccc(S(=O)(=O)N(Cc2c(Cl)cccc2Cl)c2cccc(C(=O)NC3CCC3)c2)c1,SG-Neo (L+I),absorbance,30 µM
Nc1nc2c(ncn2COC(CO)CO)c(=O)[nH]1,TPA-stimulated BCBL-1,-,120 µM
O=c1[nH]c(=O)n(C2C[C@H](CO)[C@H]2CO)cc1C=CBr,WI-38,-,≥750 µM

Neighbouring rows are from separate reports. CCn is the concentration with n% toxicity to the cells.